Laboratory results: patent US11771738B2 (Zoetis Services LLC, priority 2018, dated 2023)

Tested on: D. immitis L4 larvae
Test: Dirofilaria immitis, L4 Stage (DiL4) In Vitro Assay
Type: cell-based
Conditions: ratio of DiMf MED to DiL4 MED

For “(3S,6R,9S,12R,15S,18R,21S,24R)-6-benzyl-18-(4-(hydroxy(6-methoxypyridin-3-yl)methyl)benzyl)-3,9,15,21-tetraisobutyl-4,10,12,16,22,24-hexamethyl-1,7,13,19-tetraoxa-4,10,16,22-tetraazacyclotetracosan-2,5,8,11,14,17,20,23-octaone”, the selectivity against D. immitis L4 (DiMf/DiL4) was 20 ×.
